Laboratory results from ChEMBL document CHEMBL3232931 (J Med Chem, 2014).

Assay: Therapeutic index, ratio of CC50 for african green monkey Vero E6 cells to EC50 for SARS coronavirus infected in african green monkey Vero E6 cells
Assay type: cell-based

SMILES | Ratio CC50/EC50
COc1cc(CNC(=O)C2CCN([C@H](C)c3cccc4ccccc34)CC2)ccn1 | > 10.5
C[C@H](c1cccc2ccccc12)N1CCC(C(=O)NCc2ccc3c(c2)OCO3)CC1 | > 7.8
